The source of these data is patent publication US20100119479A1, “THERAPEUTIC ANTIVIRAL PEPTIDES” (INTERMUNE, INC., priority 2008, published 2010).

Sequences of proteins named here, by UniProt entry; tags and fusion partners are left off. Residues count along the entry.
UniProt Q9WMX2, 1027-1657 limits assumed: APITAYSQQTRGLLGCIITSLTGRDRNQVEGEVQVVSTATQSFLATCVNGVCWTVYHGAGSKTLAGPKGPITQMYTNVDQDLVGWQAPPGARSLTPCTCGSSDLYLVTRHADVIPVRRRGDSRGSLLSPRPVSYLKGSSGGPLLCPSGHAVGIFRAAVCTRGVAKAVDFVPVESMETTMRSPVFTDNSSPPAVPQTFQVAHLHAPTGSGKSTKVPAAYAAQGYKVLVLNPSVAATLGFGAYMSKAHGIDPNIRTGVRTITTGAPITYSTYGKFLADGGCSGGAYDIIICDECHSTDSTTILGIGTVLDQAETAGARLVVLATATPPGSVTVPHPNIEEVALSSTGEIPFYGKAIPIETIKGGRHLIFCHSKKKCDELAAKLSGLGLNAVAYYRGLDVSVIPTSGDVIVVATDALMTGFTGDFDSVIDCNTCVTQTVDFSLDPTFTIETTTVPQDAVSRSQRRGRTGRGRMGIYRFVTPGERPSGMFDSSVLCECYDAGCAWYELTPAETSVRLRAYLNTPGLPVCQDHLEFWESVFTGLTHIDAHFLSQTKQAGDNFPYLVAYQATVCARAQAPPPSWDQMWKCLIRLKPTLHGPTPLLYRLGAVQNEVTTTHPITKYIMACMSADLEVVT
UniProt Q9WMX2, 1658-1711 partner limits assumed: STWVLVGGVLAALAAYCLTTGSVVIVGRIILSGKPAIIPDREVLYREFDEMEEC

Assay [1] addresses full-length NS3/NS4A-2 (HCV NS3 protease) (Hepatitis C virus genotype 1b, UniProt Q9WMX2). Kind of assay: NS3 Inhibition Assay (NS3-NS4 protease assay, RETS1 substrate). Format: biochemical. Conditions: NS3/NS4A-2 protease. The protocol:
NS3 Complex Formation with NS4A-2.
Recombinant E. coli or Baculovirus full-length NS3 was diluted to 3.33 μM with assay buffer and transferred material to an eppendorf tube and placed in a water bath in a 4° C. refrigerator. The appropriate amount of NS4A-2 diluted to […] in assay buffer was added to equal the volume of NS3 above (conversion factor—3.8 mg/272 μL assay buffer). The material was transferred to an eppendorf tube and placed in water bath in a 4° C. refrigerator.
After equilibration to 4° C., equal volumes of NS3 and NS4A-2 solutions were combined in an eppendorf tube, mix gently with a manual pipettor, and incubate mixture for 15 minutes in the 4° C. water bath. Final concentrations in the mixture are 1.67 μM NS3, 4.15 mM NS4A-2 (2485-fold molar excess NS4A-2).
After 15 minutes at 4° C., the NS3/NS4A-2 eppendorf tube was removed and place it in a room temperature water bath for 10 minutes. […]
The plate was read in kinetic mode on the Molecular Devices SpectraMax Gemini XS plate reader. Reader settings: Read time: 30 minutes, Interval: 36 seconds, Reads: 51, Excitation λ: 335 nm, Emission λ: 495 nm, cutoff: 475 nm, Automix: off, Calibrate: once, PMT: high, Reads/well: 6, Vmax pts: 21 or 28/51 depending on length of linearity of reaction
IC50s are determined using a four parameter curve fit equation, and converted to Ki's using the following Km's: […]

Assay [2] relates to HCV sub-genomic replicon, GS4.3 (HuH-7 hepatoma cells). Put plainly: Quantitation by ELISA of NPTII in the HCV sub-genomic replicon, GS4.3. It counts as cell-based, hepatitis C virus (HCV). Conditions: GS4.3 replicon cells, 72 h incubation. The method, then: Quantitation by ELISA of the Selectable Marker Protein, Neomycin Phosphotransferase II (NPTII) in the HCV Sub-Genomic Replicon, GS4.3
The HCV sub-genomic replicon (1377/NS3-3′, accession No. AJ242652), stably maintained in HuH-7 hepatoma cells, was created by Lohmann et al. Science 285: 110-113 (1999). The replicon-containing cell culture, designated GS4.3, was obtained from Dr. Christoph Seeger of the Institute for Cancer Research, Fox Chase Cancer Center, Philadelphia, Pa. […]
24 h prior to the assay, GS4.3 cells were collected, counted, and plated in 96-well plates (Costar 3585) at 7500 cells/well in […] standard maintenance medium (above) and incubated in the conditions above. […]
An NPTII Elisa kit was obtained from AGDIA, Inc. (Compound direct ELISA test system for Neomycin Phosphotransferase II, PSP 73000/4800). […] Plates were read at 450 nm on a Molecular Devices Versamax plate reader.
Inhibitor effect was expressed as a percentage of DMSO-treated control signal, and inhibition curves were calculated using a 4-parameter equation: y=A+((B−A)/(1+((C/x)̂D))), where C is half-maximal activity or EC50.

The structures given here were assigned with low confidence; some may be wrong.

In assay [1], `CC[C@@H]1C[C@]1(NC(=O)[C@@H]1C[C@@H](OC(=O)N2Cc3cccc(F)c3C2)CN1C(=O)[C@@H](Nc1cccc(C(F)(F)F)c1)C(C)(C)C)C(=O)NS(=O)(=O)C1CC1` returned an IC50 of less than 100 nM. Besides, in assay [2], the EC50 was less than 100 nM.
